Data taken from ChEMBL document CHEMBL3988442, “University of Dundee, Small-Polar-MMV Screening Library” (2021).

A: 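Growth of Mycobacterium tuberculosis over 3 days (7H9 medium with glucose and tyloxapol); the read-out is not stated. Compounds at 500 µM. The record gives no direction; compounds that gave an IC50 in retests scored well above the rest, so higher reads as more growth inhibition. Of about 18,000 compounds tested this way, about 1,400 (7.9%) reached 50% or more in at least one test.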
B: 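Whole-cell growth test on Mycobacterium tuberculosis, read after 4 days in a medium based on cholesterol and the lipid DPPC; the read-out is not stated. Concentration: 500 µM. Higher reads as more growth inhibition (inferred: compounds with an IC50 in retests scored well above the rest). Size under these conditions: about 18,000 compounds, about 900 of them at 50% or above in at least one test.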

Values are the deposited “Percent Effect”, in %.
The controls that fix the scale are not given in the record; negative values are as filed.
Many other results are left out here, so strong results are more common than in the screen.
A dash means the value is not listed here; it may have been measured.

| # | compound | A | B |
|---|---|---|---|
| 1 | `Nc1nc(SCc2ccccc2F)n[nH]1` | 12.13% | 10.8% |
| 2 | `CCCNC(=O)CN(C)Cc1ccco1` | - | 34.68% |
| 3 | `CCCC(N)CNS(=O)(=O)c1c(C)nn(C)c1C` (centres undefined) | - | 13.6% |
| 4 | `NCCc1ccc(Br)o1` | - | -6.908% |
| 5 | `CCn1cccc(N)c1=O` | -33.03% | - |
| 6 | `COc1cccc(CC(=O)N2CCNCC2)c1` | 0.6799% | - |
| 7 | `CN1C(=O)C[C@@H](N)[C@@H]1c1ccc(Cl)c(Cl)c1` | - | -1.328% |
| 8 | `Cc1ccc(C(C)(C)CN(C)C(=O)CCN)cc1` | 53.78% | - |
| 9 | `COCCOC1CCN(c2cc(C)ccn2)CC1` | 44.44% | 43.31% |
| 10 | `CC(C#N)N(C)S(=O)(=O)c1cccc2ncccc12` (centres undefined) | 33.42% | - |
| 11 | `c1ccc(Cn2cnc(C3COCCN3)n2)cc1` (centres undefined) | 7.554% | - |
| 12 | `Cn1ccc(NC(=O)COc2ccccc2)n1` | 43.86% | 9.217% |
| 13 | `COc1cc(CN)cc(Br)c1OC` | 58.81% | - |
| 14 | `NCc1cccnc1O` | -16.08% | - |
| 15 | `Cc1ccsc1CN1CC(O)(CC#N)C1` | -3.01% | - |
| 16 | `CCNC(=O)c1noc(-c2ccc[nH]c2=O)n1` | -13.59% | -17.35% |
| 17 | `CCN1CCCC1CNC(=O)c1cc(Cl)ccn1` (centres undefined) | 6.169% | - |
| 18 | `NCc1cn2c(n1)CCCC2` | 12.97% | - |
| 19 | `CCN1CCN(c2cc(C#N)ccn2)CC1` | 24.38% | - |
| 20 | `NC1CCN(c2cccc(Br)c2)C1` (centres undefined) | 2.461% | -7.517% |
| 21 | `Cc1c(C(=O)N2CCCC2)cnn1-c1ccc(F)cc1` | -9.698% | - |
| 22 | `NCCc1cccc2cc[nH]c12` | 83.96% | 99.27% |
| 23 | `Nc1nccc(-c2ccncc2)n1` | - | -5.786% |
| 24 | `CN(C)C(CNC(=O)c1ccc(O)nc1)c1ccsc1` (centres undefined) | - | 1.888% |
| 25 | `Cc1noc(CN)n1` | 13.93% | - |
| 26 | `O=C(CCCc1cccs1)NC1(CCO)CCOCC1` | 2.801% | - |
| 27 | `CC(C)N(CCN)C1CC1` | 22.22% | - |
| 28 | `COCCNc1ccc(OC)c(OC)c1` | 52.76% | 30.31% |
| 29 | `N#Cc1ccc(S(=O)(=O)NCCN)cc1C(F)(F)F` | 77.68% | 65.17% |
| 30 | `CN(C)S(=O)(=O)NC(c1ccccc1)c1ccccc1` | 71.03% | 56.21% |
| 31 | `CN1CCCN(C(=O)c2coc(Br)c2)CC1` | 15.71% | - |
| 32 | `CN1CCCN(C(=O)CCc2ccsc2)CC1` | 39.42% | - |
| 33 | `Cc1cc(CN)[nH]n1` | - | 21.01% |
| 34 | `CC1=NN(C(=O)Cn2cc(C)cn2)C(O)(C(F)F)C1` (centres undefined) | - | 21.91% |
| 35 | `CC(C)OCCC(=O)N1CCC(O)(C(F)(F)F)CC1` | - | 35.77% |
| 36 | `CC(NC(=O)C1(N)Cc2ccccc2C1)C1CC1` (centres undefined) | - | -16.98% |
| 37 | `O=C(NC[C@H]1CCCN1)c1ccc2cccc(Cl)c2n1` | 32.99% | - |
| 38 | `Cc1ccc(NC(=O)Cn2ccnc2)cc1` | 62.25% | 69.96% |
| 39 | `CC(CNC(=O)c1ccncc1)c1ccccc1` (centres undefined) | 62.82% | 36.26% |
| 40 | `CCC(=O)Nc1ccc(C)c(-n2cnnn2)c1` | 7.166% | - |
| 41 | `Cc1nnc(SCc2ccc(F)cc2Cl)n1CC(N)=O` | 0.6658% | - |
| 42 | `O=C(NC1CCCCC1)c1ccc(CO)cc1` | 62.19% | 63.3% |
| 43 | `N#Cc1ccc(NCC(=O)Nc2ncccc2O)cc1` | 27.51% | - |
| 44 | `NCCc1ccc(-n2cccn2)cc1` | 73.55% | - |
| 45 | `Cc1cc(C(=O)Nc2ccc3c(c2)CCCN3)on1` | 57.29% | 62.15% |
| 46 | `CCC(CNS(=O)(=O)N(C)CC)c1ccccc1` (centres undefined) | 75.11% | 63.87% |
| 47 | `CCc1ncc(C(=O)NCCNc2cnccn2)s1` | 24.49% | - |
| 48 | `NCC(=O)N1CCN(c2ccccc2F)CC1` | 10.89% | - |
| 49 | `NC(=O)c1ccc2c(c1)CCCN2Cc1ccon1` | 22.59% | - |
| 50 | `NC1CCN(S(=O)(=O)c2ccccc2)CC1` | -9.81% | - |
| 51 | `Cc1cc(C(=O)OC(C)c2ccccn2)cc(O)n1` (centres undefined) | -38.4% | - |
| 52 | `Cc1cc(C)cc(OCC(=O)N2CCNC(=O)C2)c1` | 23.14% | - |
| 53 | `Cc1ccn2c(C(=O)N[C@@H]3CC[C@@H](N)C3)c(C)nc2c1` | 39.74% | - |

Some entries from above, unchanged:

Cc1cc(CN)[nH]n1 gave B: 21.01%.
CCn1cccc(N)c1=O gave A: -33.03%.
NCc1cn2c(n1)CCCC2 gave A: 12.97%.
Cc1c(C(=O)N2CCCC2)cnn1-c1ccc(F)cc1 gave A: -9.698%.
CC(C#N)N(C)S(=O)(=O)c1cccc2ncccc12 (centres undefined) gave A: 33.42%.